Mutational interference map of HIV-1 RNA dimerization

Source: Ye et al. 2022 (doi:10.1038/s41594-022-00746-2), supplementary data.

RNA: 5' end of the HIV-1 NL4-3 genome, made in vitro. Positions 1-437 read:
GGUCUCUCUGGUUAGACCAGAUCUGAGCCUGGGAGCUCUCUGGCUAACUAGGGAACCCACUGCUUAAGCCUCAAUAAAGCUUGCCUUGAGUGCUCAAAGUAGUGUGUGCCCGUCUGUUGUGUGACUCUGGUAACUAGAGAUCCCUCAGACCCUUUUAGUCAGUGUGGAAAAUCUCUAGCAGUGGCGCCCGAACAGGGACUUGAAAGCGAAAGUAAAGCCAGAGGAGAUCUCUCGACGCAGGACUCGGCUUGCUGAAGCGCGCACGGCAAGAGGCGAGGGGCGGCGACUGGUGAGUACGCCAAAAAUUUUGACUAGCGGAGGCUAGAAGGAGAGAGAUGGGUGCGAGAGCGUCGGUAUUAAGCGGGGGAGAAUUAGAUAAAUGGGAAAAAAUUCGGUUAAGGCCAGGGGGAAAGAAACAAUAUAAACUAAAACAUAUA

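Randomly mutated transcripts starting with one, two or three G (1G, 2G, 3G), capped or uncapped, were folded for 30 min at 37 °C. Monomer and dimer bands were cut from native gels after folding in high salt (300 mM KCl, 5 mM MgCl2) or low salt (40 mM KCl, 0.1 mM MgCl2). Kdimer compares mutation frequencies in monomer and dimer, corrected for sequencing errors.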

Scale: median log2 Kdimer over the changes at a position; positive = changes inhibit dimerization, negative = changes enhance it. One numbering serves 1G, 2G and 3G. A position is written with its base where known. Bases beyond 437 are not listed in the source.

position	2G uncapped high-salt	3G capped low-salt	1G uncapped high-salt	2G uncapped low-salt
C36	-0.41	-0.41	-0.05	-0.22
U61	0.21	0.00	0.37	0.24
A97	0.13	0.01	0.22	0.29
A98	-0.04	-0.13	0.08	0.14
C110	0.24	1.22	0.16	0.72
G123	0.00	-0.14	0.08	0.18
C151	-0.06	-0.09	-0.05	-0.06
G166	0.19	-0.07	0.15	0.10
C238	2.76	2.35	2.78	1.81
U244	0.89	1.45	1.06	2.00
C258	4.62	3.47	4.50	3.55
G275	2.58	2.47	2.60	2.60
G279	0.10	-0.19	0.19	-0.21
G310	0.00	-0.02	-0.09	0.00
G315	0.43	0.62	0.26	0.51
A336	-0.09	0.64	0.08	0.51
C343	0.24	0.59	0.10	0.29
G344	-0.15	-0.33	0.07	-0.18
G350	-0.20	0.34	-0.01	0.30
U357	0.01	-0.07	0.15	-0.01
A360	0.00	0.02	-0.09	-0.08
G364	0.04	0.11	0.01	-0.08
U373	-0.03	-0.02	0.01	-0.06
A378	0.04	0.09	-0.12	0.08
G400	-0.03	-0.08	0.16	-0.03
A423	0.06	0.09	0.02	0.04
443	0.17	0.26	0.14	0.11
449	0.04	0.23	-0.08	-0.09
453	0.03	0.15	0.06	0.14
457	0.04	0.04	0.02	0.06
461	0.04	0.07	0.04	-0.04
495	-0.01	0.26	-0.07	0.22
498	0.04	0.09	0.11	-0.04
500	-0.14	-0.05	-0.03	-0.04
505	-0.10	0.20	0.05	0.12
511	0.04	0.11	0.07	0.08

Extract of 3 entries:

position,2G uncapped high-salt,3G capped low-salt,1G uncapped high-salt,2G uncapped low-salt
U373,-0.03,-0.02,0.01,-0.06
461,0.04,0.07,0.04,-0.04
498,0.04,0.09,0.11,-0.04